The results in this text go back to PubChem BioAssay AID1963822 (ICCB-Longwood Screening Facility, Harvard Medical School, 2024).

The list shows a part of the results, in another mix than the full data. The source made the active and inactive calls. The rule behind the calls is not given here.

This assay can be described thus: anaerobic choline-dependent bacterial growth inhibition – minimal medium, absorbance (AID 1963822). The conditions noted are these: Gram-negative bacterium anaerobic choline minimal medium, active compounds read low.
Turning to `Cc1cc(C)c2c(C)c(C(=O)NCC3(N4CCOCC4)CCCCC3)oc2c1`, the z-score is inactive: 0.08.

As for `Cc1c(C(=O)NCC2(N3CCOCC3)CCCCC2)oc2cc(Br)ccc12`, the z-score was inactive: -0.91.

Turning to `Cc1c(C(=O)NCC2(N3CCOCC3)CCCCC2)oc2ccc(Cl)cc12`, the z-score was inactive: -0.04.

In the case of `Cc1c(C(=O)NCC2(N3CCOCC3)CCCCC2)oc2ccc(Br)cc12`, the z-score is inactive: -0.57.

`Cc1c(C(=O)NCC2(N(C)C)CCCCC2)oc2ccc(Br)cc12`: the z-score was inactive: 0.54.

Regarding `Cc1ccc2c(C)c(C(=O)NCC3(N(C)C)CCCCC3)oc2c1C`, the z-score was inactive: 0.16.

With `Cc1c(C(=O)NCC2(N3CCOCC3)CCCCC2)oc2ccc(F)cc12`, the z-score is inactive: 0.11.

For the molecule `Cc1c(C(=O)NCC2(N(C)C)CCCCC2)oc2cc(Br)ccc12`, the z-score is inactive: 0.77.

Consider `Cc1c(C(=O)NCC2(N(C)C)CCCCC2)oc2ccc(Cl)cc12`, for which the z-score is inactive: 0.44.
